The text below walks through data of patent publication US9625458B2, “Biosensor” (priority 2002, dated 2017).

By UniProt entry, the sequences of proteins in these tests, tags left out. Where a name states a change or a piece, a line headed by the entry shows the natural chain unless it says otherwise.
UniProt P02924: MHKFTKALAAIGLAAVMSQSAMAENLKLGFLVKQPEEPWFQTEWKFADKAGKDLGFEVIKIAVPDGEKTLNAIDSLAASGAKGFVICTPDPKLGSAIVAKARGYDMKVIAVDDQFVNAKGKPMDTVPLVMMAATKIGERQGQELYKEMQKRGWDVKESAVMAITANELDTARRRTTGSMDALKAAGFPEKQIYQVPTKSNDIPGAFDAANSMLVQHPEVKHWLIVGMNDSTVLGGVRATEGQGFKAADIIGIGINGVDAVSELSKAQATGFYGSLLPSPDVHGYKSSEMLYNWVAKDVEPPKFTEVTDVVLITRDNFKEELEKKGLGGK

First the molecules themselves.
B1: arabinose BP F23C Fluorescein (conjugate, UniProt P02924 24-329, looked up, variant F23C)
L-arabinose-binding …: ENLKLGFLVKQPEEPWFQTEWKCADKAGKDLGFEVIKIAVPDGEKTLNAIDSLAASGAKGFVICTPDPKLGSAIVAKARGYDMKVIAVDDQFVNAKGKPMDTVPLVMMAATKIGERQGQELYKEMQKRGWDVKESAVMAITANELDTARRRTTGSMDALKAAGFPEKQIYQVPTKSNDIPGAFDAANSMLVQHPEVKHWLIVGMNDSTVLGGVRATEGQGFKAADIIGIGINGVDAVSELSKAQATGFYGSLLPSPDVHGYKSSEMLYNWVAKDVEPPKFTEVTDVVLITRDNFKEELEKKGLGGK
modifications: fluorescein label
B2: arabinose BP K301C NBD (conjugate, UniProt P02924 24-329, looked up, variant K301C)
L-arabinose-binding …: B1 L-arabinose-binding … with C23F, K301C
modifications: NBD label
B3: arabinose BP K301C JPW4039 (conjugate, UniProt P02924 24-329, looked up, variant K301C)
L-arabinose-binding …: B1 L-arabinose-binding … with C23F, K301C
modifications: JPW4039 label
B4: arabinose BP K301C Fluorescein (conjugate, UniProt P02924 24-329, looked up, variant K301C)
L-arabinose-binding …: B1 L-arabinose-binding … with C23F, K301C
modifications: fluorescein label
B5: arabinose BP K301C Acrylodan (conjugate, UniProt P02924 24-329, looked up, variant K301C)
L-arabinose-binding …: B1 L-arabinose-binding … with C23F, K301C
modifications: acrylodan label
B6: arabinose BP F23C NBD (conjugate, UniProt P02924 24-329, looked up, variant F23C)
L-arabinose-binding …: B1 L-arabinose-binding …
modifications: NBD label
B7: arabinose BP L253C JPW4039 (conjugate, UniProt P02924 24-329, looked up, variant L253C)
L-arabinose-binding …: B1 L-arabinose-binding … with C23F, L253C
modifications: JPW4039 label
B8: histidine BP E167C Acrylodan (conjugate, UniProt P0AEU0 23-260, looked up, variant E167C)
Histidine-binding periplasmic …: AIPQNIRIGTDPTYAPFESKNSQGELVGFDIDLAKELCKRINTQCTFVENPLDALIPSLKAKKIDAIMSSLSITEKRQQEIAFTDKLYAADSRLVVAKNSDIQPTVESLKGKRVGVLQGTTQETFGNEHWAPKGIEIVSYQGQDNIYSDLTAGRIDAAFQDEVAASCGFLKQPVGKDYKFGGPSVKDEKLFGVGTGMGLRKEDNELREALNKAFAEMRADGTYEKLAKKYFDFDVYGG
modifications: acrylodan conjugate
B9: histidine BP K229C NBD (conjugate, UniProt P0AEU0 23-260, looked up, variant K229C)
Histidine-binding periplasmic …: B8 Histidine-binding periplasmic … with C167E, K229C
modifications: NBD label
B10: histidine BP V163C JPW4042 (conjugate, UniProt P0AEU0 23-260, looked up, variant V163C)
Histidine-binding periplasmic …: B8 Histidine-binding periplasmic … with V163C, C167E
modifications: JPW4042 dye label
B11: histidine BP V163C Fluorescein (conjugate, UniProt P0AEU0 23-260, looked up, variant V163C)
Histidine-binding periplasmic …: B8 Histidine-binding periplasmic … with V163C, C167E
modifications: fluorescein conjugate
B12: histidine BP E167C NBD (conjugate, UniProt P0AEU0 23-260, looked up, variant E167C)
Histidine-binding periplasmic …: B8 Histidine-binding periplasmic …
modifications: NBD dye conjugate
B13: histidine BP K229C Acrylodan (conjugate, UniProt P0AEU0 23-260, looked up, variant K229C)
Histidine-binding periplasmic …: B8 Histidine-binding periplasmic … with C167E, K229C
modifications: acrylodan conjugate
B14: histidine BP K229C Fluorescein (conjugate, UniProt P0AEU0 23-260, looked up, variant K229C)
Histidine-binding periplasmic …: B8 Histidine-binding periplasmic … with C167E, K229C
modifications: fluorescein label
B15: histidine BP V163C Acrylodan (conjugate, UniProt P0AEU0 23-260, looked up, variant V163C)
Histidine-binding periplasmic …: B8 Histidine-binding periplasmic … with V163C, C167E
modifications: acrylodan conjugate
B16: histidine BP E167C Fluorescein (conjugate, UniProt P0AEU0 23-260, looked up, variant E167C)
Histidine-binding periplasmic …: B8 Histidine-binding periplasmic …
modifications: fluorescein conjugate
B17: Glu/Asp BP T129C NBD (conjugate, UniProt P37902 23-302, looked up, variant T129C)
Glutamate/aspartate import …: DDAAPAAGSTLDKIAKNGVIVVGHRESSVPFSYYDNQQKVVGYSQDYSNAIVEAVKKKLNKPDLQVKLIPITSQNRIPLLQNGTFDFECGSTTNNVERQKQAAFSDCIFVVGTRLLTKKGGDIKDFANLKDKAVVVTSGTTSEVLLNKLNEEQKMNMRIISAKDHGDSFRTLESGRAVAFMMDDALLAGERAKAKKPDNWEIVGKPQSQEAYGCMLRKDDPQFKKLMDDTIAQVQTSGEAEKWFDKWFKNPIPPKNLNMNFELSDEMKALFKEPNDKALN
modifications: NBD conjugate

Substitutions are numbered along the chain they refer to. Names and notes keep the numbering of the source.

A short description of one data set: Fluorescence emission spectra without and with saturating ligand (wavelength shift, ΔIstd, ΔRmax). To be noted: emission maximum, absence of ligand. As for the experimental part: Fluorimetry. All measurements were conducted with an SLM Aminco-Bowman series 2 fluorimeter, with sample stirring at 25° C. Fluorescence emission spectra were acquired with excitation and emission slit widths of 4 and 8 nm, respectively. Photomultiplier tube potential was maintained between 400 and 800 volts. Protein concentrations were in the range of 50 to 1000 nM. Fluorophore-specific excitation was at the following approximate wavelengths: tryptophan, 290 nm; acrylodan, 390 nm; fluorescein, 485 nm; pyrene, 340 nm; NBD and NBDE, 490 nm; JPW4039, 485 nm; JPW4042, 470 nm; JPW4045, 470 nm.
Assessment of fluorescent biosensor function. Fluorescence emission spectra of bPBP-fluorophore conjugates were recorded in the absence and presence of saturating ligand concentrations. Spectral changes were characterized by four parameters: wavelength shift (the difference between the wavelengths of emission maximum in the unbound and ligand-saturated states), direction of intensity change (increase or decrease in intensity at the wavelengths of maximum emission in the two states), standard intensity change (ΔIstd), and standard ratiometric change (ΔR). ΔIstd is defined as the normalized intensity change relative to the average intensity, determined at the wavelength mid-point between the two emission maxima:
[formula] where λstd=(λmax, unbound+λmax, saturated)/2 and I1, I2 are the fluorescence intensities at λstd of each spectrum respectively (FIG. 4A). ΔR is defined in terms of two emission bands, A1 ([λ1, λ2]) and A2 ([λ3, λ4]) (FIG. 4B):
[formula] where ^∘A1, […] the areas in the absence of ligand, and ^∞A1, ^∞A2 the areas in the presence of saturating ligand. A computer program was used to enumerate ΔR for all possible pairs of wavelength bands in the two spectra, to identify the optimal sensing condition, defined as the maximum value of ΔR. Adjustable parameters of the algorithm, and their values used for ΔRmax quantities reported here, are: step size (2 nm), step width (10 nm), minimum integration area limit (fraction of total: 0.1), and maximum integration area limit (fraction of total: 1).
As for B1, the “λmax,apo (nm)” value came out at 519.

Turning to B2, the “λmax,apo (nm)” value is given as 532.

In the case of B3, the “λmax,apo (nm)” value worked out at 582.

With B4, the “λmax,apo (nm)” value is 518.

Take B5: the “λmax,apo (nm)” value is reported as 486.

For the molecule B6, the “λmax,apo (nm)” value came to 543.

Consider B7, for which the “λmax,apo (nm)” value is recorded as 590.

Regarding B8, the “λmax,apo (nm)” value turned out to be 504.

Take B9: the “λmax,apo (nm)” value is 532.

As for B10, the “λmax,apo (nm)” value stood at 659.

With B11, the “λmax,apo (nm)” value was determined as 520.

For the molecule B12, the “λmax,apo (nm)” value worked out at 539.

Take B13: the “λmax,apo (nm)” value worked out at 526.

For the molecule B14, the “λmax,apo (nm)” value was 517.

Turning to B15, the “λmax,apo (nm)” value was found to be 493.

Regarding B16, the “λmax,apo (nm)” value amounted to 517.

As for B17, the “λmax,apo (nm)” value is 537.

The same data set, now with this note: emission maximum, saturating ligand (ligand column).
On to B1, for which the “λmax,sat (nm)” value was 519.

On to B2, for which the “λmax,sat (nm)” value stood at 538.

As for B3, the “λmax,sat (nm)” value is recorded as 588.

B4: the “λmax,sat (nm)” value is 517.

Regarding B5, the “λmax,sat (nm)” value is on record as 486.

Consider B6, for which the “λmax,sat (nm)” value came out at 548.

In the case of B7, the “λmax,sat (nm)” value was 589.

Turning to B8, the “λmax,sat (nm)” value was 506.

In the case of B9, the “λmax,sat (nm)” value came to 536.

For the molecule B10, the “λmax,sat (nm)” value is recorded as 654.

For B11, the “λmax,sat (nm)” value came out at 521.

Take B12: the “λmax,sat (nm)” value is recorded as 541.

On to B13, for which the “λmax,sat (nm)” value stood at 527.

Take B14: the “λmax,sat (nm)” value was 516.

As to B15, the “λmax,sat (nm)” value is on record as 500.

Regarding B16, the “λmax,sat (nm)” value came out at 518.

Regarding B17, the “λmax,sat (nm)” value was found to be 538.

The same data set, now with this note: standard intensity change, unbound vs ligand-saturated.
With B1, the ΔIstd was determined as 0.04.

In the case of B2, the ΔIstd turned out to be 0.08.

With B3, the ΔIstd amounted to 1.20.

As for B4, the ΔIstd is on record as 0.41.

B5: the ΔIstd is recorded as 0.10.

Consider B6, for which the ΔIstd was found to be 0.38.

With B7, the ΔIstd is 0.83.

Take B8: the ΔIstd came to 0.17.

As for B9, the ΔIstd worked out at 0.12.

In the case of B10, the ΔIstd came to 0.82.

B11: the ΔIstd is recorded as 0.12.

Take B12: the ΔIstd was found to be 0.05.

On to B13, for which the ΔIstd came to 0.02.

With B14, the ΔIstd worked out at 0.03.

For the molecule B15, the ΔIstd is on record as 0.03.

On to B16, for which the ΔIstd is on record as 0.08.

For the molecule B17, the ΔIstd is given as 0.09.

Still in this data set, the particulars now being: standard ratiometric change, unbound vs ligand-saturated.
As to B1, the ΔRmax turned out to be 0.45.

For B2, the ΔRmax is given as 3.15.

Consider B3, for which the ΔRmax was 1.73.

Take B4: the ΔRmax turned out to be 1.06.

Consider B5, for which the ΔRmax is given as 1.19.

On to B6, for which the ΔRmax is on record as 0.76.

As to B7, the ΔRmax turned out to be 1.31.

Regarding B8, the ΔRmax turned out to be 0.72.

B9: the ΔRmax is recorded as 0.31.

Turning to B10, the ΔRmax is listed as 2.44.

Consider B11, for which the ΔRmax is 0.10.

As to B12, the ΔRmax came to 0.42.

In the case of B13, the ΔRmax is reported as 0.41.

B14: the ΔRmax is on record as 0.05.

B15: the ΔRmax worked out at 2.05.

Regarding B16, the ΔRmax came out at 0.40.

On to B17, for which the ΔRmax came to 0.15.
